Results as given in ChEMBL document CHEMBL1143376, “Synthesis and biological evaluation of extraordinarily potent C-10 carba artemisinin dimers against P. falciparum malaria parasites and HL-60 cancer cells” (Bioorg Med Chem, 2009).

Experiments:
Plasmodium falciparum [1] = assay: Antimalarial activity against chloroquine-sensitive Plasmodium falciparum 3D7 by [3H]hypoxanthine uptake
Plasmodium falciparum [2] = assay: Antimalarial activity against chloroquine-resistant Plasmodium falciparum K1 by [3H]hypoxanthine uptake

C[C@H]1[C@@H](CCCOP(C)(=O)OCCC[C@H]2O[C@@H]3O[C@@]4(C)CC[C@H]5[C@H](C)CC[C@@H]([C@H]2C)[C@@]35OO4)O[C@@H]2O[C@@]3(C)CC[C@H]4[C@H](C)CC[C@@H]1[C@@]24OO3
IC50 (Plasmodium falciparum [1]): 0.5 nM

C[C@H]1[C@@H](CCOP(C)(=O)OCC[C@H]2O[C@@H]3O[C@@]4(C)CC[C@H]5[C@H](C)CC[C@@H]([C@H]2C)[C@@]35OO4)O[C@@H]2O[C@@]3(C)CC[C@H]4[C@H](C)CC[C@@H]1[C@@]24OO3
IC50 (Plasmodium falciparum [2]): 0.04 nM

C[C@H]1[C@@H](CCOP(C)(=O)OCC[C@H]2O[C@@H]3O[C@@]4(C)CC[C@H]5[C@H](C)CC[C@@H]([C@H]2C)[C@@]35O4)O[C@@H]2O[C@@]3(C)CC[C@H]4[C@H](C)CC[C@@H]1[C@@]24O3
IC50 (Plasmodium falciparum [2]): > 1000 nM
